Where two headings read alike, the source gives them in different places.
How the values were obtained:
PmST3 = assay: Donor substrate specificity of PmST3, one-pot sialylation system; assay type: biochemical, Pasteurella multocida; conditions: for Sialylation: acceptor LacßSph, SiaT PmST3, donor generated in situ from precursor
CjCst-I = assay: Donor substrate specificity of CjCst-I, one-pot sialylation system; assay type: biochemical, Campylobacter jejuni; conditions: acceptor LacßSph; SiaT CjCst-I; donor generated in situ from precursor
CjCst-II = assay: Donor substrate specificity of CjCst-II, one-pot sialylation system; assay type: biochemical, Campylobacter jejuni; conditions: donor generated in situ from precursor
[1] = molecular target: CMP-sialic acid synthetase (Neisseria meningitidis, UniProt P0A0Z8, N224H)
PmST1 = PmST1 (Pasteurella multocida, UniProt Q15KI8); assay: Donor substrate specificity of wild-type PmST1, one-pot sialylation system; assay type: biochemical; conditions: substance as acceptor substrate
[2] = one-pot reaction with LacßProN3, SiaT PmST1 or PmST1_M144D
[3] = one-pot reaction with LacßSph, SiaT CjCst-I
[4] = one-pot reaction with LacßSph, SiaT PmST3

Molecule	Sialylation (PmST3)	Sialylation (CjCst-I)	Sialylation by CjCst-II, acceptor GM3ßSph (CjCst-II; acceptor GM3ßSph)	Sialylation by CjCst-II, acceptor GM3βProN3 (CjCst-II; acceptor GM3βProN3)	CMP-Sia formation [1, 2]	CMP-Sia formation [1, 3]	CMP-Sia formation [1, 4]	activity on sialylating the terminal Gal (PmST1)	activity on sialylating the terminal Gal (PmST3; substance as acceptor substrate, PmST3)
[N-]=[N+]=NC1C(O)OC(CO)[C@@H](N=[N+]=[N-])[C@@H]1O (some centres unmarked)	50-60%	60-70%	50 to 60%	Over 90%	Good	Good	Good		
[N-]=[N+]=NC1C(O)O[C@H]([C@@H](CO)N=[N+]=[N-])[C@H]1O (some centres unmarked)	< 10%	< 10%			Low	Low	Low		
β-D-Galactopyranosyl-(1→3)-(2-acetamido-2-deoxy-β-D-galactopyranosyl)-(→4)-(5,9-diacetamido-3,5,9-trideoxy-D-glycero-α-D-galacto-2-nonulopyranosylonic acid)-(2→8)-(5-acetamido-3,5-dideoxy-D-glycero-α-D-galacto-2-nonulopyranosylonic acid)-(2→3)-β-D-galactopyranosyl-(1→4)-β-D-glucopyranosyl-(1→1)-(2S, 3R, 4E)-2-amino-4-octadecene-1,3-diol								no or very low activity	no or very low activity
